Test results: patent US20060024794

Molecular target: GFP-SNAP25 (134-206) fusion protein substrate (UniProt P60880)

recombinant BoNT/A-LC, wild type, baculovirally expressed, C-terminal His tag
endopeptidase enzymatic activity (GFP-SNAP cleavage assay): showed significant high activity
